{
  "source": "paper PMC7990223",
  "key": {"[1]": {"target": "mACE2 (F83Y/H353K) (mouse) (UniProt Q8R0I0)"}, "mACE2 (F83Y) (mouse)": {"target": "mACE2 (F83Y) (mouse) (UniProt Q8R0I0)"}, "mACE2 (H353K) (mouse)": {"target": "mACE2 (H353K) (mouse) (UniProt Q8R0I0)"}},
  "data": [
    {"substance": "S1 domain of the SARS-CoV spike protein C-terminally fused with Fc (from UniProt P59594 14-667)", "values": [
      {"measurement": "percent of ACE2-expressing (zsGreen1+) cells positive for S1-Fc", "setting": "[1]", "value": 81.8, "unit": "%"},
      {"measurement": "percent of ACE2-expressing (zsGreen1+) cells positive for S1-Fc", "setting": "mACE2 (F83Y) (mouse)", "value": 63.7, "unit": "%"},
      {"measurement": "percent of ACE2-expressing (zsGreen1+) cells positive for S1-Fc", "setting": "mACE2 (H353K) (mouse)", "value": 83.1, "unit": "%"}
    ]}
  ]
}
